From PubChem BioAssay AID1745857 (National Center for Advancing Translational Sciences (NCATS), 2022) come the findings set out here.

The entries are a selection whose mix differs from that of the whole data set. Results filed as inconclusive are left out. Activity calls are given as the source filed them. Calls come from the whole dose curve.
% is set by controls: 0 for no effect and ±100 for the full control effect.

The assay in a line: Primary qHTS Assay for Foot and Mouth Disease Virus Antivirals against NCGC Sytravon and CBC Compound Libraries: Renilla Luciferase Signal. Note: nearly all actives have a fitted effect of over 55% in size. Conditions: FMDV replicon cells; at 57.5 µM (top of the series) unless noted. For orientation: qHTS replaces the single test concentration by a dilution series.
Consider `OCCSCCO`, for which the activity change, negative = inhibition was inactive: -2.29%.

`BrCCNCCc1ccncc1`: the activity change, negative = inhibition was inactive: 6.12%.

As to `CCNC(C)Cc1ccc2c(c1)OCO2` (configuration not stated), the activity change, negative = inhibition was inactive: -2.91% [at 129 µM].

Turning to `CCOP(=O)(CC)Oc1ccc([N+](=O)[O-])cc1` (configuration not stated), the activity change, negative = inhibition is inactive: -10.5%.

For `Cc1cccc([N+](=O)[O-])c1[N+](=O)[O-]`, the activity change, negative = inhibition was inactive: -5.03% [at 114 µM].

In the case of `CCn1nc(C(=O)NCC2(N3CCCCC3)CCCCC2)c2ccccc2c1=O`, the activity change, negative = inhibition was inactive: 7.01%.

As to `CN(C(=O)Cc1ccccc1)[C@H]1CC[C@@]2(CCCO2)C[C@@H]1N1CCCC1`, the activity change, negative = inhibition was inactive: -11.9%.

For the compound `ClCCNC1C2CC3CC(C2)CC1C3` (configuration not stated), the activity change, negative = inhibition is inactive: -1.78%.

Consider `O=[N+]([O-])c1cccc([N+](=O)[O-])c1`, for which the activity change, negative = inhibition is inactive: -11.6% [at 114 µM].

With `CN(C(=O)Cc1ccc(Cl)c(Cl)c1)[C@H]1CC[C@@]2(CCCO2)C[C@@H]1N1CCCC1`, the activity change, negative = inhibition was inactive: -21.2%.

On to `Cc1ccc(C(=O)NC(Sc2ccccc2)C(Cl)(Cl)Cl)cc1` (configuration not stated), for which the activity change, negative = inhibition is inactive: 6.07%.

With `NC(=O)Nc1ccc([As](=O)(O)O)cc1`, the activity change, negative = inhibition was inactive: 29.9%.

`Fc1ccc(NC2=NCC(CI)S2)c(F)c1` (configuration not stated): the activity change, negative = inhibition is inactive: 2.38%.

On to `BrCC1CN=C(Nc2ccccc2)S1` (configuration not stated), for which the activity change, negative = inhibition was inactive: 86.8%.

With `Cc1ccc(C(=O)NC(Sc2ccc(Cl)cc2)C(Cl)(Cl)Cl)cc1` (configuration not stated), the activity change, negative = inhibition was inactive: -17.2%.

For the compound `NNc1ccc([N+](=O)[O-])cc1[N+](=O)[O-]`, the activity change, negative = inhibition was inactive: -3.59%.

For `Fc1ccc(CNC2=NCC(CBr)S2)cc1` (configuration not stated), the activity change, negative = inhibition was inactive: -13.3%.

For the compound `O=C(NC(Sc1ccccc1)C(Cl)(Cl)Cl)c1ccc(Cl)cc1` (configuration not stated), the activity change, negative = inhibition was inactive: -2.3%.

Take `O=C(NC(Sc1ccc(Cl)cc1)C(Cl)(Cl)Cl)c1ccccc1` (configuration not stated): the activity change, negative = inhibition was inactive: -21.9%.

As for `O=C(/C=C/c1ccccc1)NC(Sc1ccc(Cl)cc1)C(Cl)(Cl)Cl` (configuration not stated), the activity change, negative = inhibition is inactive: 10.3%.

Take `Cc1cccc(C(=O)NC(Sc2ccccc2)C(Cl)(Cl)Cl)c1` (configuration not stated): the activity change, negative = inhibition is inactive: 13.1%.

For `Clc1cccc(NC2=NCC(CBr)S2)c1` (configuration not stated), the activity change, negative = inhibition is inactive: 2.98%.
